Values from PubChem BioAssay AID624099 (ICCB-Longwood, 2012)
In all, the deposit lists about 21,000 reagents; below is a random part of them. 497 of all reagents (2.4%) count as active. 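Higher z means weaker E2 silencing; only reporter increases were scored, and knock-downs that hurt cell survival may mask genuine repressor factors.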 Reagents against one gene are numbered here. No sequences are given here.

Assay: 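Human genes that papillomavirus E2 requires to repress the HPV18 LCR promoter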 (primary screen)
Cell system: human C33A cervical carcinoma cells (HPV-negative) stably expressing BPV1 E2 and an HPV18 LCR luciferase reporter
Reagent: siRNA pool against human genes, 40 nM
Timing: 72 h
Detection: 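HPV18 LCR reporter light per well, converted to plate-wise z-scores that exclude control wells, and averaged over triplicate plates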
Reading the numbers: mean z-score and z-score: higher = stronger reporter signal, weaker E2 silencing
Active means: 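Mean z ≥ 2 together with z ≥ 2 in two or more of the three replicates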

| target | reagent no. | mean z-score | z-score, replicate A | z-score, replicate B | z-score, replicate C | Call |
| --- | --- | --- | --- | --- | --- | --- |
| GALR3 (galanin receptor 3) | 1 | -1.87 | -2.03 | -1.87 | -1.7 | inactive |
| FRRS1L (ferric chelate reductase 1 like) | 1 | 0.82 | 0.7 | 0.84 | 0.93 | inactive |
| CFAP90 (cilia and flagella associated protein 90) | 1 | 0.49 | 0.8 | 0.43 | 0.24 | inactive |
| FGFR2 (fibroblast growth factor receptor 2) | 1 | -0.62 | -0.06 | -0.84 | -0.95 | inactive |
| CSTF2T (cleavage stimulation factor subunit 2 tau variant) | 1 | 0.07 | 0.1 | -0.07 | 0.17 | inactive |
| TMTC4 (transmembrane O-mannosyltransferase targeting cadherins 4) | 1 | -0.63 | -0.57 | -0.56 | -0.76 | inactive |
| KSR2 (kinase suppressor of ras 2) | 1 | -0.48 | -0.28 | -0.76 | -0.4 | inactive |
| SMARCB1 (SWI/SNF related BAF chromatin remodeling complex subunit B1) | 1 | -0.95 | -0.94 | -0.89 | -1.01 | inactive |
| SEC61A2 (SEC61 translocon subunit alpha 2) | 1 | 1.45 | 1.58 | 1.45 | 1.33 | inactive |
| BARHL1 (BarH like homeobox 1) | 1 | 0.03 | 0.05 | -0.1 | 0.14 | inactive |
| POLE4 (DNA polymerase epsilon 4, accessory subunit) | 1 | -0.24 | -0.46 | -0.21 | -0.03 | inactive |
| HSD17B10 (hydroxysteroid 17-beta dehydrogenase 10) | 1 | 0.41 | 0.24 | 0.58 | 0.42 | inactive |
| TMEM71 (transmembrane protein 71) | 1 | -0.58 | -0.88 | -0.51 | -0.36 | inactive |
| TBX3 (T-box transcription factor 3) | 1 | -0.11 | -0.37 | 0.01 | 0.04 | inactive |
| NINJ1 (ninjurin 1) | 1 | 1.53 | 1.41 | 1.55 | 1.64 | inactive |
| HAVCR2 (hepatitis A virus cellular receptor 2) | 1 | 0.32 | 0.24 | 0.25 | 0.47 | inactive |
| ZNF703 (zinc finger protein 703) | 1 | 0.31 | 0.72 | 0.21 | 0.01 | inactive |
| NCAM2 (neural cell adhesion molecule 2) | 1 | -0.27 | -0.21 | -0.37 | -0.22 | inactive |
| LOC402282 (retired record) | 1 | -1.16 | -1.08 | -1.03 | -1.36 | inactive |
| PGCKA1 (PDCD10 and GCKIII kinases associated 1) | 1 | 0.34 | 0.23 | 0.3 | 0.47 | inactive |
| IKBKB (inhibitor of nuclear factor kappa B kinase subunit beta) | 1 | 1.48 | 1.44 | 1.47 | 1.53 | inactive |
| CDCA7 (cell division cycle associated 7) | 1 | 0.26 | 0.21 | 0.22 | 0.37 | inactive |
| CCNDBP1 (cyclin D1 binding protein 1) | 1 | 0.41 | 0.5 | 0.27 | 0.45 | inactive |
| OPTN (optineurin) | 1 | -1.62 | -1.53 | -1.43 | -1.92 | inactive |
| LIN9 (lin-9 DREAM MuvB core complex component) | 1 | -1.21 | -1.74 | -0.86 | -1.04 | inactive |
| NUP214 (nucleoporin 214) | 1 | -0.05 | -0.05 | -0.31 | 0.22 | inactive |
| KRT33B (keratin 33B) | 1 | 0.53 | 0.43 | 0.81 | 0.35 | inactive |
| CUZD1 (CUB and zona pellucida like domains 1) | 1 | 0.07 | -0.07 | -0.1 | 0.39 | inactive |
| ZNF317 (zinc finger protein 317) | 1 | -1.21 | -1.08 | -1.09 | -1.46 | inactive |
| DHRS4 (dehydrogenase/reductase 4) | 1 | 1.4 | 1.27 | 1.33 | 1.61 | inactive |
| CELA2A (chymotrypsin like elastase 2A) | 1 | 0.38 | 0.77 | 0.15 | 0.21 | inactive |
| RAB11FIP1 (RAB11 family interacting protein 1) | 1 | -0.06 | -0.3 | -0.07 | 0.19 | inactive |
| COL9A1 (collagen type IX alpha 1 chain) | 1 | 0.19 | 0.03 | 0.26 | 0.28 | inactive |
| CCL4L1 (C-C motif chemokine ligand 4 like 1) | 1 | -0.95 | -1.27 | -0.69 | -0.88 | inactive |
| DKK4 (dickkopf Wnt signaling pathway inhibitor 4) | 1 | -0.14 | 0.21 | -0.14 | -0.5 | inactive |
| HNRNPA1P8 (heterogeneous nuclear ribonucleoprotein A1 pseudogene 8) | 1 | -0.18 | -0.14 | -0.42 | 0.02 | inactive |
| HNRNPA1P8 (heterogeneous nuclear ribonucleoprotein A1 pseudogene 8) | 2 | -0.42 | -0.33 | -0.54 | -0.41 | inactive |
| AMDHD2 (amidohydrolase domain containing 2) | 1 | -0.35 | -0.54 | -0.43 | -0.07 | inactive |
| SPI1 (Spi-1 proto-oncogene) | 1 | -0.25 | -0.37 | 0.43 | -0.8 | inactive |

Entries above whose target name starts with C or c (8):
| target | reagent no. | mean z-score | z-score, replicate A | z-score, replicate B | z-score, replicate C | Call |
| --- | --- | --- | --- | --- | --- | --- |
| CFAP90 (cilia and flagella associated protein 90) | 1 | 0.49 | 0.8 | 0.43 | 0.24 | inactive |
| CSTF2T (cleavage stimulation factor subunit 2 tau variant) | 1 | 0.07 | 0.1 | -0.07 | 0.17 | inactive |
| CDCA7 (cell division cycle associated 7) | 1 | 0.26 | 0.21 | 0.22 | 0.37 | inactive |
| CCNDBP1 (cyclin D1 binding protein 1) | 1 | 0.41 | 0.5 | 0.27 | 0.45 | inactive |
| CUZD1 (CUB and zona pellucida like domains 1) | 1 | 0.07 | -0.07 | -0.1 | 0.39 | inactive |
| CELA2A (chymotrypsin like elastase 2A) | 1 | 0.38 | 0.77 | 0.15 | 0.21 | inactive |
| COL9A1 (collagen type IX alpha 1 chain) | 1 | 0.19 | 0.03 | 0.26 | 0.28 | inactive |
| CCL4L1 (C-C motif chemokine ligand 4 like 1) | 1 | -0.95 | -1.27 | -0.69 | -0.88 | inactive |
